One experiment addresses SARS-CoV RBD (SARS-CoV) (UniProt P59594). The experiment can be described thus: ELISA. A general note: In an ELISA, binding on a coated surface is turned into a signal by an enzyme label.
Another experiment deals with WIV1 RBD (UniProt P59594). The experiment is described as follows: ELISA.

By EC50 is commonly meant the midpoint of the concentration-response curve. The low end stands for higher potency in that assay, the high end for lower potency in that assay. Consider C102 IgG, for which the EC50 in the experiment with SARS-CoV RBD (SARS-CoV) and in the experiment with WIV1 RBD was > 10 µg/mL throughout.
Turning to C144 IgG, the EC50 with SARS-CoV RBD (SARS-CoV) and with WIV1 RBD was > 10 µg/mL each time.

Source of the values: patent publication US20230250157A1.
